Measured values from several laboratories, pooled; numbers as filed in NIAID ChemDB.

Common to all: whole-cell or culture tests; agent: HIV-1

Blank or dashed fields: not listed here.

compound	measure	changes	cell line	strain or isolate	read by	value
Cc1ccc(C)n1-c1ccc(C(=O)O)c(O)c1	EC90	-	PBMC + MT-2	93BR020 X4R5 CLADE F	p24	15.22 µM
CC(C)C1=C2[C@H]3CC[C@@H]4[C@@]5(C)CC[C@H](OC(=O)[C@H]6C[C@@H](C(=O)O)C6(C)C)C(C)(C)[C@@H]5CC[C@@]4(C)[C@]3(C)CC[C@@]2(CCNC(=O)c2ccc(CN3CCS(=O)(=O)CC3)cc2)CC1=O	EC50	-	MT-2	92HT599	p24 / ELISA	<1 µM
O=C1Nc2ccc(F)c(F)c2[C@@](/C=C/C2CC2)(C(F)(F)F)N1	EC90	RT-K101E	-	-	-	<0.012 µM
CC(C)C1=C2[C@H]3CC[C@@H]4[C@@]5(C)CC[C@H](OC(=O)[C@H]6C[C@@H](C(=O)O)C6(C)C)C(C)(C)[C@@H]5CC[C@@]4(C)[C@]3(C)CC[C@@]2([C@@H](O)CNCc2ccccc2Cl)CC1=O	EC50	-	MT-2	92HT599	p24 / ELISA	<1 µM
COc1ccc(S(=O)(=O)N(CC2CCCC2)C(=O)C(=O)C(=O)N(CC2CCCC2)S(=O)(=O)c2ccccc2)cc1	EC90	-	CEM	IIIB	p24	1 µM
CN1Cn2c(nc(C(=O)NCc3ccc(F)cc3S(C)(=O)=O)c(O)c2=O)C1(C)C	EC95	-	MT-4	-	p24	<1 µM
CC(C)C1=C2[C@H]3CC[C@@H]4[C@@]5(C)CC[C@H](OC(=O)[C@H]6C[C@@H](C(=O)O)C6(C)C)C(C)(C)[C@@H]5CC[C@@]4(C)[C@]3(C)CC[C@@]2(CCNCC(C)(C)NC(=O)c2cncnc2)CC1=O	EC50	-	MT-2	92HT599	p24 / ELISA	<1 µM
O=C1Nc2ccc(F)c(F)c2[C@@](C#CC2CC2)(C(F)(F)F)N1	EC90	RT-P225H	-	-	-	<0.012 µM
CN1CCn2c(nc(C(=O)NCc3ccc(F)cc3)c(O)c2=O)C1	EC95	-	MT-4	-	p24	<50 µM
Cc1cc(S(N)(=O)=O)ccc1NC(=O)COc1ccc(Cl)cc1C(=O)c1cc(F)cc(F)c1	fold resistance	RT-E138K	HeLa + HELA CD4+	HXB2	β-galactosidase	~1
COc1ccnc2[nH]cc(C(=O)C(=O)N3C4CC3CN(C(=O)c3ccccc3)C4)c12	EC99	-	TZM-bl	AC10	luciferase	>>250 µM
CC(C)C1=C2[C@H]3CC[C@@H]4[C@@]5(C)CC[C@H](OC(=O)[C@H]6C[C@@H](C(=O)O)C6(C)C)C(C)(C)[C@@H]5CC[C@@]4(C)[C@]3(C)CC[C@@]2(CCNC(=O)c2ccccc2Cl)CC1=O	EC50	-	MT-2	92HT599	p24 / ELISA	<1 µM
COc1ccc(S(=O)(=O)N(CC(O)CN(CC2CCCC2)S(=O)(=O)c2ccccc2)CC2CCCC2)cc1	EC90	-	CEM	IIIB	p24	1 µM
Cc1cc(S(N)(=O)=O)ccc1NC(=O)COc1ccc(Cl)cc1C(=O)c1cccc(C#N)c1	EC50	RT-Y181C	MT-4	Nevirapine-resistant (RT Y181C)	cytopathic effect / propidium iodide	<0.01 µM
CC(C)C1=C2[C@H]3CC[C@@H]4[C@@]5(C)CC[C@H](OC(=O)[C@H]6C[C@@H](C(=O)O)C6(C)C)C(C)(C)[C@@H]5CC[C@@]4(C)[C@]3(C)CC[C@@]2(CCNC(=O)c2cccnc2N2CCOCC2)CC1=O	EC50	-	MT-2	92HT599	p24 / ELISA	<1 µM
Cc1coc(CN2CCn3c(nc(C(=O)NCc4ccc(F)cc4)c(O)c3=O)C2(C)C)n1	EC95	-	MT-4	-	p24	<1 µM
Cc1cc(C#N)cc(C(=O)c2cc(Cl)ccc2OCC(=O)Nc2ccc(S(N)(=O)=O)cc2C)c1	fold resistance	RT-L100I	HeLa + HELA CD4+	HXB2	β-galactosidase	~1
CSCC1NCCn2c1nc(C(=O)NCc1ccc(F)cc1)c(O)c2=O	EC95	-	MT-4	-	p24	<1 µM
CC(C)C1=C2[C@H]3CC[C@@H]4[C@@]5(C)CC[C@H](OC(=O)[C@H]6C[C@@H](C(=O)O)C6(C)C)C(C)(C)[C@@H]5CC[C@@]4(C)[C@]3(C)CC[C@@]2(CC(=O)NCc2ccc(N3CCC(O)CC3)cc2)CC1=O	EC50	-	MT-2	92HT599	p24 / ELISA	<1 µM
Cc1cc(Cl)cc(C(=O)c2cc(Cl)ccc2OCC(=O)Nc2ccc(S(N)(=O)=O)cc2C)c1	fold resistance	RT-K103N	HeLa + HELA CD4+	HXB2	β-galactosidase	~10
CC(C)C1=C2[C@H]3CC[C@@H]4[C@@]5(C)CC[C@H](OC(=O)[C@H]6C[C@@H](C(=O)O)C6(C)C)C(C)(C)[C@@H]5CC[C@@]4(C)[C@]3(C)CC[C@@]2(CC(=O)NCC(C)(C)NC(=O)CN(C)C)CC1=O	EC50	-	MT-2	92HT599	p24 / ELISA	<1 µM
Cc1cc(S(N)(=O)=O)ccc1NC(=O)COc1ccc(Cl)cc1C(=O)c1cc(C#N)cc(C#N)c1	fold resistance	RT-K103N	HeLa + HELA CD4+	HXB2	β-galactosidase	~1
CC(C)C1=C2[C@H]3CC[C@@H]4[C@@]5(C)CC[C@H](OC(=O)[C@H]6C[C@@H](C(=O)O)C6(C)C)C(C)(C)[C@@H]5CC[C@@]4(C)[C@]3(C)CC[C@@]2([C@@H](O)CNC(=O)C(C)(C)NC(=O)c2ccccc2Cl)CC1=O	EC50	-	MT-2	92HT599	p24 / ELISA	<1 µM
O=C(c1ccccc1)N(CCc1ccccc1)C[C@H](O)CN(CC1CCCC1)S(=O)(=O)CC1COCO1	EC90	-	CEM	IIIB	p24	1 µM
Cc1cc2[nH]cnc2cc1NC(=O)COc1ccc(Cl)cc1C(=O)c1cc(F)cc(C(F)(F)F)c1	fold resistance	RT-K103N	HeLa + HELA CD4+	HXB2	β-galactosidase	~1
COc1ccnc2[nH]cc(C(=O)C(=O)N3C4CCCC3CN(C(=O)c3ccccc3)C4)c12	EC99	-	TZM-bl	SF162	luciferase	120 µM
Cc1cc(S(N)(=O)=O)ccc1NC(=O)COc1ccc(Cl)cc1C(=O)c1cc(Cl)cc(C#N)c1	fold resistance	RT-V108I	HeLa + HELA CD4+	HXB2	β-galactosidase	~1
O=C1NC(=O)C(CS(=O)(=O)N(CC2CCCC2)C[C@@H](O)CN(CCc2ccccc2)C(=O)c2ccccc2)N1	EC90	-	CEM	IIIB	p24	1 µM
CN1CCN(C(=O)CN2CCn3c(nc(C(=O)NCc4ccc(F)cc4)c(O)c3=O)C2(C)C)CC1	EC95	-	MT-4	-	p24	<1 µM
Cc1cc(C#N)cc(C(=O)c2cc(Cl)ccc2OCC(=O)Nc2ccc(S(N)(=O)=O)nc2C)c1	fold resistance	RT-K103N Y181C	HeLa + HELA CD4+	HXB2 (RT-K103N Y181C) Recombinant	β-galactosidase	~1

2 of the rows above, restated:

compound,measure,changes,cell line,strain or isolate,read by,value
CC(C)C1=C2[C@H]3CC[C@@H]4[C@@]5(C)CC[C@H](OC(=O)[C@H]6C[C@@H](C(=O)O)C6(C)C)C(C)(C)[C@@H]5CC[C@@]4(C)[C@]3(C)CC[C@@]2([C@@H](O)CNCc2ccccc2Cl)CC1=O,EC50,-,MT-2,92HT599,p24 / ELISA,<1 µM
Cc1cc(S(N)(=O)=O)ccc1NC(=O)COc1ccc(Cl)cc1C(=O)c1cc(Cl)cc(C#N)c1,fold resistance,RT-V108I,HeLa + HELA CD4+,HXB2,β-galactosidase,~1

ECn: concentration that inhibits the pathogen or its effect by n%. Conditions beyond the fields shown may differ between rows. Fold resistance has wild type as its base.